Source: PubChem BioAssay AID1259414 (Drosophila RNAi Screening Center, 2018)

Purpose: 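Host factors increasing or decreasing Wolbachia levels in cultured fly cells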 (primary screen)
Cells: Drosophila JW18 cells infected with Wolbachia
Knock-down reagent: long dsRNA against Drosophila genes, 0.25 µg dsRNA per well of a 384-well plate
Duration: 5 days
Treatment: cells persistently infected with Wolbachia before knock-down; no added drug
Detection: 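Imaged fluorescence in situ signal for Wolbachia 23S rRNA per DAPI-counted host cell, given as a robust z-score within each plate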
Reading the numbers: Wolbachia per cell robust z: higher = more Wolbachia per host cell than the plate typical
Call rule: 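Hit when robust z is 1.5 or more, or -1.5 or less, in at least two of three replicates; excludes dsRNAs with several or no targets, genes not expressed in JW18 and well A1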
The screen tested about 24,000 reagents; this is a random part of those that have a named target and a result. Over the whole deposit, about 1,210 (5%) were called active. 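Inactive calls also include excluded dsRNAs with several or no targets, genes unexpressed in JW18, and well A1, regardless of score.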 A number with no mark means an inactive call. Names joined by + are all predicted targets of the reagent.

gene	dsRNA	Wolbachia per cell robust z, rep 1	Wolbachia per cell robust z, rep 2	Wolbachia per cell robust z, rep 3
dpr13 (defective proboscis extension response 13)	DRSC06160	-3.16	-0.859	0.144
dpr13 (defective proboscis extension response 13)	DRSC06464	0.0946	-0.706	0.462
dpr13 (defective proboscis extension response 13)	DRSC24196	-0.281	0.517	0.564
Ak3 (Adenylate kinase 3)	DRSC16075	0.24	0.205	0.716
Ak3 (Adenylate kinase 3)	DRSC27968	-0.566	-1.39	0.75
Obp50c + Obp50b	DRSC05482	-9.81	0.222	1.05
Tsen54 (tRNA splicing endonuclease subunit 54)	DRSC10527	-2.07	-0.964	0.362
Tsen54 (tRNA splicing endonuclease subunit 54)	DRSC27583	-0.758	-0.00484	-0.844
Tsen54 (tRNA splicing endonuclease subunit 54)	DRSC41601	-0.43	-2.39	-0.554
e(r) (enhancer of rudimentary)	DRSC18768	0.304	-1.05	1.01
His4r (Histone H4 replacement)	DRSC16703	5.05 (active)	8.27	6.55
His4r (Histone H4 replacement)	DRSC27569	0.485	0.145	0.17
tfc (triforce)	DRSC07953	0.555	0.784	1.49
tfc (triforce)	DRSC07954	2.02	0.891	1.01
tfc (triforce)	DRSC08626	0.614	-0.487	0.728
tfc (triforce)	DRSC21704	0.0574	-1.27	0.0474
tfc (triforce)	DRSC23750	1.11	1.02	1.17
tok (tolkin)	DRSC17087	0.158	-0.239	-0.598
tok (tolkin)	DRSC39140	0.416	-0.931	0.129
CG31975 + ovm	DRSC00323	0.207	0.243	-0.207
CG31975 + ovm	DRSC22146	0.162	-0.885	-0.167
CG6425	DRSC16038	1.13	4.06	-0.593
mTerf5 (mitochondrial transcription termination factor 5)	DRSC16209	-0.734	-1.29	-0.367
mTerf5 (mitochondrial transcription termination factor 5)	DRSC41507	0.668	-0.341	0.35
CG2811	DRSC04318	-0.251	0.561	-0.268
Cka (Connector of kinase to AP-1)	DRSC03476	-2.15	-0.291	0.0441
Cka (Connector of kinase to AP-1)	DRSC22858	0.727	1.44	0.645
CG11779	DRSC14384	1.5	1.58	0.478
CG13024	DRSC09904	0.76	-0.562	0.671
CG13024	DRSC29921	1.49	0.544	1.25
CG6959	DRSC16151	-0.829	-0.0229	-1.66
Cpr47Ef (Cuticular protein 47Ef)	DRSC06336	1.25	-2.63	-0.18
Cpr47Ef (Cuticular protein 47Ef)	DRSC22450	-1.69	0.314	-0.573
Cpr47Ef (Cuticular protein 47Ef)	DRSC25090	-0.936	0.152	-0.126
Cpr47Ef (Cuticular protein 47Ef)	DRSC25665	0.836	-0.0758	-1.52
kri (krishah)	DRSC10515	0.871	-0.56	-2.45
Ets96B	DRSC16127	-2.94	-0.135	0.397
Ets96B	DRSC27110	-5.36	0.569	1.03
nAChRbeta1 (nicotinic Acetylcholine Receptor beta1)	DRSC08097	-1.93	-0.518	-0.265
nAChRbeta1 (nicotinic Acetylcholine Receptor beta1)	DRSC08728	-7.24	-8.81	-1.29
Gorab (Golgin, RAB6 interacting)	DRSC10383	-0.943	-0.257	1.47
Gorab (Golgin, RAB6 interacting)	DRSC29314	-0.862	0.408	-1.79
CG6712	DRSC02981	-0.0952	-0.743	-0.407
CG6712	DRSC21690	0.269	0.107	0.0954
CG6262	DRSC23105	-0.0634	0.0456	-0.221
CG6262	DRSC27998	-5.47	-0.337	-0.176
CG14356	DRSC14819	-1.93	-0.686	-0.656
RalGPS (Ral GEF with PH domain and SH3 binding motif)	DRSC06941	-0.42	1.2	-1.1
RalGPS (Ral GEF with PH domain and SH3 binding motif)	DRSC27139	0.0712	-0.816	0.569
Sms (Spermine synthase)	DRSC10408	0.361	-0.589	-0.503
CG32445	DRSC11678	-1.74	1.91	1.37
CG32391	DRSC08865	0.716	1.33	0.964
CG12662	DRSC17865	-4.57	-0.174	-0.0901
CG12511	DRSC02171	-2.86	-0.957	0.38
CG10950	DRSC06020	-0.271	-1.41	-1.68
lncRNA:CR43242 (long non-coding RNA:CR43242)	DRSC03827	-2.93 (active)	0.304	-4.01
Nha1 (Na[+]/H[+] hydrogen antiporter 1)	DRSC02109	0.228	1.19	-1.95
Shaw (Shaker cognate w)	DRSC00433	0.0663	-0.816	-1.09
Shaw (Shaker cognate w)	DRSC00788	-2.09	-4.77	-3.11
Shaw (Shaker cognate w)	DRSC21368	0.742	-0.377	-1.21
alpha4GT1 (alpha1,4-galactosyltransferase 1)	DRSC00488	0.268	-0.587	-0.097
nsr (novel spermatogenesis regulator)	DRSC04427	-0.85	0.376	0.256
nsr (novel spermatogenesis regulator)	DRSC22806	0.894	1.77	0.77
Gr36c (Gustatory receptor 36c)	DRSC02437	0.648	0.767	0.263
Gr36c (Gustatory receptor 36c)	DRSC26305	0.86	-0.00257	-0.684
CG14856	DRSC14980	-0.188	-0.329	-1.03
CG13931	DRSC08400	-0.361	1.04	0.766
CG13931	DRSC25534	0.842	0.183	-0.918

Records above whose target name begins with M or m (2):
gene	dsRNA	Wolbachia per cell robust z, rep 1	Wolbachia per cell robust z, rep 2	Wolbachia per cell robust z, rep 3
mTerf5 (mitochondrial transcription termination factor 5)	DRSC16209	-0.734	-1.29	-0.367
mTerf5 (mitochondrial transcription termination factor 5)	DRSC41507	0.668	-0.341	0.35
